Data source: PubChem BioAssay AID624099 (ICCB-Longwood, 2012)

- Test: 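Human genes that papillomavirus E2 requires to repress the HPV18 LCR promoter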 (primary screen)
- System: human C33A cervical carcinoma cells (HPV-negative) stably expressing BPV1 E2 and an HPV18 LCR luciferase reporter
- Reagents: siRNA pool against human genes, 40 nM
- Duration: 72 h
- Measured: 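HPV18 LCR reporter light per well, converted to plate-wise z-scores that exclude control wells, and averaged over triplicate plates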
- Reading the numbers: mean z-score and z-score: higher = stronger reporter signal, weaker E2 silencing
- Rule for the call: 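Mean z ≥ 2 together with z ≥ 2 in two or more of the three replicates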
The whole screen tested about 21,000 reagents; below is a part drawn at random. 497 of them (2.4%) were called active. 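Higher z means weaker E2 silencing; only reporter increases were scored, and knock-downs that hurt cell survival may mask genuine repressor factors.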 Reagents against one gene are numbered here.

Gene,pool no.,mean z-score,"z-score, replicate A","z-score, replicate B","z-score, replicate C",Outcome
CRNN,1,1.21,1.54,1.39,0.7,inactive
BICD2,1,0.76,0.56,0.67,1.07,inactive
NUP107,1,0.29,-0.08,0.8,0.14,inactive
LOC388897 (retired record),1,0.91,1.21,0.26,1.24,inactive
C4orf17,1,0.6,0.29,0.66,0.86,inactive
ZFPM2,1,0.79,1.34,0.56,0.47,inactive
RNASE11,1,0.42,0.4,0.33,0.54,inactive
LUZP1,1,0.38,0.41,0.37,0.35,inactive
CALCOCO2,1,-1.87,-2.27,-1.48,-1.87,inactive
MMP2,1,0.02,0.16,0,-0.08,inactive
FBXL22,1,0.18,-0.37,0.3,0.61,inactive
ADGRE5,1,0.44,0.53,0.32,0.46,inactive
IGSF3,1,0.61,0.88,0.65,0.29,inactive
RPL6P20,1,-0.17,-0.46,-0.24,0.19,inactive
PDE6A,1,0.3,0.32,0.19,0.4,inactive
CPLX2,1,0.08,0.38,-0.01,-0.12,inactive
CPLX2,2,1.63,1.56,1.78,1.56,inactive
CIMAP2,1,0.65,0.83,0.83,0.29,inactive
ZNF407,1,0.5,0.57,0.48,0.45,inactive
PLA2G4E,1,0.05,0,0.13,0,inactive
PLA2G4E,2,-0.95,-0.84,-1.19,-0.81,inactive
TMEM217,1,0.06,0.47,0,-0.29,inactive
PLD4,1,-0.31,-0.58,-0.01,-0.33,inactive

Entries above whose target name begins with P or p:
Gene,pool no.,mean z-score,"z-score, replicate A","z-score, replicate B","z-score, replicate C",Outcome
PDE6A,1,0.3,0.32,0.19,0.4,inactive
PLA2G4E,1,0.05,0,0.13,0,inactive
PLA2G4E,2,-0.95,-0.84,-1.19,-0.81,inactive
PLD4,1,-0.31,-0.58,-0.01,-0.33,inactive
